From ChEMBL document CHEMBL1142214, “Synergistic interaction between phenothiazines and antimicrobial agents against Burkholderia pseudomallei” (2007)

Columns and labels:
Assay type in all cases: functional
[1] = system: Burkholderia pseudomallei; assay: Antimicrobial activity against Burkholderia pseudomallei KHW in presence of 500 uM promazine
[2] = system: Burkholderia pseudomallei; assay: Antimicrobial activity against Burkholderia pseudomallei KHW in presence of 250 uM promazine
[3] = system: Burkholderia pseudomallei; assay: Antimicrobial activity against Burkholderia pseudomallei KHW in presence of 500 uM omeprazole
[4] = system: Burkholderia pseudomallei; assay: Antimicrobial activity against Burkholderia pseudomallei KHW in presence of 250 uM omeprazole

Measured: MIC

CN[C@@H]1[C@H](O)[C@H](NC)[C@H]2O[C@@]3(O)C(=O)C[C@@H](C)O[C@H]3O[C@@H]2[C@H]1O [SPECTINOMYCIN]
64 µg/mL: all assays above
